From article PMC8190750 (Cell Research, 2021)
Read-outs that look alike come from different tables or passages of the source.

The chains behind the UniProt entries cited, without tags or fusion partners.
UniProt P0DTC4, whole entry: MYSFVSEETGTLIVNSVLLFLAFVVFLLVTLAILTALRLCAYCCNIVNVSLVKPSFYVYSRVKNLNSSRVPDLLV

Key:
2-E protein [1] = biological target: T1, 2-E protein (Severe acute respiratory syndrome coronavirus 2, UniProt P0DTC4); assay: Planar lipid bilayer recording, inhibition of 2-E channel activity; type: biochemical, SARS-CoV-2; conditions: read-out: IC50 Channel inhibition
SARS-CoV-2 [2] = assay: Viral inhibition assay in Vero E6 cells (viral RNA copy by qRT-PCR); type: cell-based
[3] = tested on: 2-E-induced cell death in Vero E6 cells; assay: Cell protection against 2-E-induced cell death (CCK-8); type: cell-based, African green monkey
C57BL/6 mice = assay: In vivo dose range toxicity study
[4] = In vivo pharmacokinetics in mice; conditions: C57BL/6 mice
SARS-CoV-2 [5] = assay: In vivo antiviral efficacy in SARS-CoV-2-infected hACE-2 mice
2-E protein [6] = biological target: T1, 2-E protein; assay: SPR binding assay
[7] = Tissue distribution assay in mice; type: in vivo, ICR male mice; conditions: oral administration, LC-MS/MS
Vero E6 cells = assay: Cytotoxicity (CCK-8)
[8] = read-out: IC50 Anti-virus, 24 h post infection, viral RNA copy in cell supernatant by qRT-PCR, tested form: HCl
[9] = read-out: IC50 Cell protection, Vero E6 cell survival rate at 24 h post transfection, tested form: HCl
[10] = read-out: IC50 Anti-virus, 24 h post infection, viral RNA copy in cell supernatant by qRT-PCR
[11] = read-out: IC50 Cell protection, Vero E6 cell survival rate at 24 h post transfection

COc1cc2c3cc1Oc1c(OC)c(OC)cc4c1[C@@H](Cc1ccc(CO)c(c1)Oc1ccc(cc1)C[C@@H]3N(C)CC2)N(C)CC4
IC50 (2-E protein [1]; tested form: HCl): 12400 nM | IC50 (SARS-CoV-2 [2]; [8]): 1120 nM | IC50 [3, 9]: 4900 nM

COc1cc2c3cc1Oc1c(OC)c(OC)cc4c1[C@@H](Cc1ccc(C#N)c(c1)Oc1ccc(cc1)C[C@@H]3N(C)CC2)N(C)CC4
IC50 (2-E protein [1]; tested form: HCl): 1670 nM | IC50 (SARS-CoV-2 [2]; [8]): 700 nM | IC50 [3, 9]: 280 nM

COc1cc2c3cc1Oc1c(OC)c(OC)cc4c1C(Cc1ccc(OC(=O)CCCCC5CCSS5)c(c1)Oc1ccc(cc1)CC3N(C)CC2)N(C)CC4 (stereo not drawn)
IC50 (2-E protein [1]): 12900 nM | IC50 (SARS-CoV-2 [2]; [10]): 1500 nM | IC50 [3, 11]: 40 nM

CCCCNC(=O)Oc1ccc2cc1Oc1ccc(cc1)CC1c3cc(c(OC)cc3CCN1C)Oc1c(OC)c(OC)cc3c1C(C2)N(C)CC3 (stereo not drawn)
toxicity observation (C57BL/6 mice; 5 mg/kg or 10 mg/kg group, once-daily tail vein injection, 5 days): No obvious toxicity was observed | locomotor activity (C57BL/6 mice; 50 mg/kg administration group, repeat dose tail vein injection): a pronounced decrease in locomotor activity was observed | body weight compared with the control group (C57BL/6 mice; up to 50 mg/kg, repeat dose tail vein injection): No significant changes in body weight were observed | AUCINF_obs ([4]; 2.5 mg/kg iv): 1405 ± 393 ng·h/mL | AUClast ([4]; 2.5 mg/kg iv): 1324 ± 330 ng·h/mL | CL ([4]; 2.5 mg/kg iv): 31.10 ± 7.90 mL/min/kg | MRTINF_obs ([4]; 2.5 mg/kg iv): 7.53 ± 1.90 h | T1/2 ([4]; 2.5 mg/kg iv): 5.67 ± 1.09 h | Vss_obs ([4]; 2.5 mg/kg iv): 13.535 ± 1.699 L/kg | F (bioavailability) ([4]; 10 mg/kg po vs 2.5 mg/kg iv): 51% | AUCINF_obs ([4]; 10 mg/kg po): 2776 ± 806 ng·h/mL | AUClast ([4]; 10 mg/kg po): 2699 ± 791 ng·h/mL | MRTINF_obs ([4]; 10 mg/kg po): 6.67 ± 0.47 h | T1/2 ([4]; 10 mg/kg po): 4.45 ± 0.67 h | Tmax ([4]; 10 mg/kg po): 0.25 ± 0.00 h | Cmax ([4]; 10 mg/kg po, plasma): 497 ± 80 ng/mL | IC50 (2-E protein [1]): 5790 nM | gross lung lesions at necropsy (interstitial pneumonia symptoms) (SARS-CoV-2 [5]; 5 mg/kg): could relieve these symptoms | lung histopathology (H&E) (SARS-CoV-2 [5]; 5 mg/kg): only few observed eosins in the lungs and minor damage of mouse lung | survival at end of study (SARS-CoV-2 [5]; 5 mg/kg 2 h prior to or 2 h after infection, 2 × 10^6 TCID50): all mice were alive | viral RNA in the lung vs control mice (SARS-CoV-2 [5]; 5 mg/kg, both therapeutic or preventive administration, qRT-PCR): a trend toward decreased levels of viral RNA in the lung | edema of spleen (SARS-CoV-2 [5]; 5 mg/kg, especially in therapeutic group): significantly alleviated | body, lung and spleen weight (SARS-CoV-2 [5]; 5 mg/kg, prophylactic or therapeutic): no obvious changes were observed | mRNA levels of inflammatory cytokines and chemokines in the left lung (SARS-CoV-2 [5]; 5 mg/kg, qRT-PCR): significantly lower levels of inflammatory cytokines and partial chemokines than infected mice | IL-6, IL-1RA and IL-1β in the left lung (SARS-CoV-2 [5]; 5 mg/kg, therapeutic and preventive groups): decreased | binding to 2-E channels (2-E protein [6]): validated | concentration in the lungs after treatment [7]: 100000 ng/g | IC50 (SARS-CoV-2 [2]; [10]): 940 nM | IC50 [3, 11]: 10 nM | cytotoxicity (in words) (Vero E6 cells): negligible cytotoxicity
